Experiment [1] deals with MvcA (C83A) (Legionella pneumophila, UniProt Q5ZTL3 1-426, C83A). The conditions noted are these: both partners purified.
In experiment [2] the target is MavC (aa 1–385) (Legionella pneumophila, UniProt Q5ZTL4 1-385). Description: crystal structure. The conditions noted are these: both partners purified.

B1: Lpg2149, wild type (natural protein)
chain: MMSREKAAGTFFKDYQKKNVMRLLQDSLEKIINEWLKTDDESHTKLKSLQELSEMDINATSFAEHSPLPDFVTRLWLDPHKALDAMDKNISKNEIRKLIKETAREIELVFTHQKAPDYS
Regarding B1, in experiment [1], the binding result is on record as “binds”.

B2: Lpg2149 (aa 9–111) (domain or fragment)
chain: GTFFKDYQKKNVMRLLQDSLEKIINEWLKTDDESHTKLKSLQELSEMDINATSFAEHSPLPDFVTRLWLDPHKALDAMDKNISKNEIRKLIKETAREIELVFT
With B2, in experiment [2], the binding result was “binds”.

For the origin of these results see article PMC7265302 (Nature Communications, 2020).
